Compound potency records, mixed from different reports. Data source: NIAID ChemDB in PubChem.

Common to all: tests in culture; agent: Mycobacterium avium

Blank or dashed fields: not listed here. ECn: concentration that inhibits the pathogen or its effect by n%. Inhibition is in % at the dose shown (toxicity tests: loss of growth or viability). MIC50, MIC90 and the like: level of inhibition, or share of isolates inhibited. Neighbouring rows are from separate reports.

SMILES,strain,read by,conditions,measure,tested at,result
NC[C@H]1O[C@H](O[C@H]2[C@H](O)[C@@H](O[C@H]3O[C@H](CO)[C@@H](O)[C@H](N)[C@H]3O)[C@H](N)C[C@@H]2N)[C@H](O)[C@@H](O)[C@@H]1O,ATCC 25291,-,-,Mean MIC,-,3.3 µg/mL
COc1ccn2nc(C)c(C(=O)NCc3ccc(N4CCN(c5ccc(OC(F)(F)F)cc5)[C@H]5CCCC[C@@H]54)c(F)c3)c2c1.Cl,-,fluorescence,-,inhibition,0.78 µM,85%
CC[C@H]1OC(=O)[C@H](C)[C@@H](O[C@H]2C[C@@](C)(OC)[C@@H](O)[C@H](C)O2)[C@H](C)[C@@H](O[C@@H]2O[C@H](C)C[C@H](N(C)C)[C@H]2O)[C@](C)(OC)C[C@@H](C)C(=O)[C@H](C)[C@@H](O)[C@]1(C)O,3011,-,-,MBC,-,64 µg/mL
CC(C)N1CCN(c2cc3c(cc2F)c(=O)c(C(=O)O)cn3C2CC2)CC1,-,-,-,MIC90,-,8 µg/mL
O=c1[nH]c(=O)n(COCCO)cc1[N+](=O)[O-],ATCC 25291,-,-,EC50,-,>100 µg/mL
O=c1[nH]c(=S)c(CO)cn1C1OC(CO)C(O)C1O,ATCC 25291,resazurin,-,MIC58,-,50 µg/mL
Cc1ccc(C(=O)CC(N/N=C(\N)c2ccccn2)c2ccncc2)cc1,17 strains,-,-,MIC50,-,160 µg/mL
O=C(NNC(=O)c1ccncc1)Nc1ccc(C(F)(F)F)cc1,MY330/88,broth dilution,21 d,MIC100,-,>125 µM
CCCCCCOc1ccc(NC(=O)OCCN2CCCCCC2)cc1,MY330/88,-,-,MIC,-,16 µM
O=c1ccn([C@@H]2O[C@H](CO)[C@@H](O)[C@H]2F)c(=O)[nH]1,ATCC 25291,-,-,EC50,-,>50 µg/mL
CCc1nc2ccc(Cl)cn2c1C(=O)NCc1cc(F)c(N2CCN(c3ccc(OC(F)(F)F)cc3)[C@@H](C)C2)cc1F.Cl,-,fluorescence,-,inhibition,0.014 µM,85%
COc1cccc(NC(=O)OCC[NH+]2CCCC2)c1,MY330/88,-,-,MIC,-,>1000 µM
COc1ccc(Nc2nnc(-c3ccncc3)o2)cc1,MY330/88,broth dilution,14 d,MIC100,-,>125 µM
CCc1cn2c(nc1=O)O[C@@H]1[C@H](F)[C@H]2O[C@@H]1CO,ATCC 25291,resazurin,-,MIC25,-,50 µg/mL
COc1ccc(NC(=O)OCCN2CCCCC2)cc1,MY330/88,-,-,MIC,-,125 µM
CC1COc2c(N3CCN(C)CC3)c(F)cc3c(=O)c(C(=O)O)cn1c23,ATCC 25291,-,-,Median MIC,-,>8 µg/mL
CCCCOc1cccc(NC(=O)OCCN2CCCCCC2)c1,MY330/88,-,-,MIC,-,32 µM
O=C(O)c1cn(C2CC2)c2cc(N3CCN(c4ccccc4)CC3)c(F)cc2c1=O,-,-,-,MIC50,-,4 µg/mL
CC(C)(C)OCOC(=O)c1cnccn1,ATCC 25291,-,-,MBC,-,200 µg/mL
O=C(NNC(=O)c1ccncc1)Nc1ccc(F)c(C(F)(F)F)c1,MY330/88,broth dilution,21 d,MIC100,-,>125 µM
N/C(=N\NC(CC(=O)c1ccc(-c2ccccc2)cc1)c1ccncc1)c1ccccn1,17 strains,-,-,MIC90,-,160 µg/mL
Cc1ccn2c(C(=O)NCc3ccc(N4CCC(c5ccc(OC(F)(F)F)cc5)CC4)c(F)c3)c(C)nc2c1.Cl,-,fluorescence,-,inhibition,0.12 µM,85%
NC(=O)c1cnccn1,ATCC 25291,-,-,MBC,-,>200 µg/mL
CCCCCCCCOc1ccc(NC(=O)OCCN2CCCCCC2)cc1,MY330/88,-,-,MIC,-,8 µM
N/C(=N\NC(CC(=O)c1ccc(-c2ccccc2)cc1)c1ccccn1)c1ccccn1,17 strains,-,-,MIC90,-,160 µg/mL
O=c1[nH]c(=O)n([C@H]2C=C[C@@H](CO)O2)cc1I,ATCC 25291,-,-,inhibition,50 µg/mL,0%
NNC(=O)c1ccncc1,3337-4,-,-,MBC,-,80 µg/mL
CCc1cn(COCCO)c(=O)[nH]c1=O,ATCC 25291,-,-,EC50,-,>100 µg/mL
CC(O)c1cn([C@H]2C[C@H](O)[C@@H](CO)O2)c(=O)[nH]c1=O,ATCC 25291,-,-,EC90,-,5 µg/mL
CCS/C(N)=N\N=C\c1ccc(C(F)(F)F)cc1,Clinical isolates,-,-,Geometric mean MIC,-,8.78 µg/mL
CCc1nc2cc(F)ccn2c1C(=O)NCc1ccc(N2CCN(c3ccc(OC(F)(F)F)cn3)[C@@H](C)C2)c(F)c1.Cl,-,fluorescence,-,inhibition,0.0042 µM,85%
CCCCCCCCCCOc1ccc(NC(=O)OCC[NH+]2CCCC2)cc1,MY330/88,-,-,MIC,-,16 µM
CCCCCC#Cc1cn(COCCO)c(=O)[nH]c1=O,ATCC 25291,-,-,EC50,-,>100 µg/mL
CCCCCCOc1cccc(NC(=O)OCCN2CCOCC2)c1,MY330/88,-,-,MIC,-,32 µM
O=C(NNC(=O)c1ccncc1)Nc1ccc(Br)cc1Br,MY330/88,broth dilution,14 d,MIC100,-,>125 µM
N/C(=N\NC(CC(=O)c1cccc(Cl)c1)c1ccncc1)c1ccccn1,17 strains,-,-,MIC90,-,80 µg/mL
CCCCCCCCCCC#Cc1cn(COC(CO)CO)c(=O)[nH]c1=O,ATCC 25291,-,-,EC50,-,>50 µg/mL
CC(=O)OC[C@H]1O[C@@H](n2cc(C(F)CBr)c(=O)[nH]c2=O)C[C@@H]1OC(C)=O,ATCC 25291,-,-,EC50,-,<5 µg/mL
CCc1cn(C2OC(CO)C(O)C2F)c(=O)[nH]c1=S,-,resazurin,-,MIC35,-,100 µg/mL
O=c1[nH]c(=O)n([C@H]2C[C@H](O)[C@@H](CO)O2)cc1Br,ATCC 25291,-,-,inhibition,50 µg/mL,0%
O=c1ccn(COCCO)c(=O)[nH]1,ATCC 25291,-,-,EC50,-,>100 µg/mL
O=C(NNC(=O)c1ccncc1)Nc1ccc(F)c(Cl)c1,MY330/88,broth dilution,14 d,MIC100,-,>62.5 µM
NCC[C@H](O)C(=O)N[C@@H]1C[C@H](N)[C@@H](O[C@H]2O[C@H](CN)[C@@H](O)[C@H](O)[C@H]2O)[C@H](O)[C@H]1O[C@H]1O[C@H](CO)[C@@H](O)[C@H](N)[C@H]1O,100 strains,-,-,MIC50,-,2.65 µg/mL
N/C(=N\NC(CC(=O)c1cccc(Cl)c1)c1cccnc1)c1ccccn1,17 strains,-,-,MIC50,-,32 µg/mL
CCCCCCCCCOc1cccc(NC(=O)OCCN2CCCCC2)c1,MY330/88,-,-,MIC,-,16 µM
Cc1cn2c(C(=O)NCc3ccc(N4CCC(c5ccc(OC(F)(F)F)cc5)CC4)c(Cl)c3)c(C)nc2s1.Cl,-,fluorescence,-,inhibition,0.35 µM,85%
Cc1cn([C@H]2C=C[C@@H](CO)O2)c(=O)[nH]c1=O,ATCC 25291,-,-,EC50,-,>50 µg/mL
[N-]=[N+]=NC(CI)c1cn(COC(CO)CO)c(=O)[nH]c1=O,ATCC 25291,-,-,EC50,-,>100 µg/mL

Repeating the final 6 entries:

| SMILES | strain | read by | conditions | measure | tested at | result |
|---|---|---|---|---|---|---|
| NCC[C@H](O)C(=O)N[C@@H]1C[C@H](N)[C@@H](O[C@H]2O[C@H](CN)[C@@H](O)[C@H](O)[C@H]2O)[C@H](O)[C@H]1O[C@H]1O[C@H](CO)[C@@H](O)[C@H](N)[C@H]1O | 100 strains | - | - | MIC50 | - | 2.65 µg/mL |
| N/C(=N\NC(CC(=O)c1cccc(Cl)c1)c1cccnc1)c1ccccn1 | 17 strains | - | - | MIC50 | - | 32 µg/mL |
| CCCCCCCCCOc1cccc(NC(=O)OCCN2CCCCC2)c1 | MY330/88 | - | - | MIC | - | 16 µM |
| Cc1cn2c(C(=O)NCc3ccc(N4CCC(c5ccc(OC(F)(F)F)cc5)CC4)c(Cl)c3)c(C)nc2s1.Cl | - | fluorescence | - | inhibition | 0.35 µM | 85% |
| Cc1cn([C@H]2C=C[C@@H](CO)O2)c(=O)[nH]c1=O | ATCC 25291 | - | - | EC50 | - | >50 µg/mL |
| [N-]=[N+]=NC(CI)c1cn(COC(CO)CO)c(=O)[nH]c1=O | ATCC 25291 | - | - | EC50 | - | >100 µg/mL |